Measurements reported in US20250282834A1, “PEPTIDE INHIBITORS FOR CHROMODOMAIN HELICASE DNA BINDING PROTEIN 4 (CHD4)” (THE REGENTS OF THE UNIVERSITY OF CALIFORNIA, priority 2022, published 2025).
Entries after “also recorded” stand apart in the source; their conditions may differ.

System: KSHV
Assay: RT-qPCR of CHD4, LANA and K-Rta gene expression in BC3 cells
Assay type: cell-based, Kaposi's sarcoma-associated herpesvirus (KSHV)
Settings: RT-qPCR normalized to 18S ribosomal RNA

CC[C@H](C)[C@H](NC(=O)[C@@H](NC(=O)[C@H](C)NC(=O)[C@H](Cc1c[nH]cn1)NC(=O)[C@H](CCCCN)NC(=O)[C@H](Cc1c[nH]c2ccccc12)NC(=O)CCNC(=O)[C@H](CCCNC(=N)N)NC(=O)[C@H](CCCNC(=N)N)NC(=O)[C@H](CCCNC(=N)N)NC(=O)[C@H](CCCN)NC(=O)[C@H](CCCNC(=N)N)NC(=O)[C@H](CCCNC(=N)N)NC(=O)[C@H](CCCCN)NC(=O)[C@H](CCCCN)NC(=O)[C@H](N)CCCNC(=N)N)C(C)C)C(=O)N[C@@H](Cc1ccccc1)C(=O)N[C@@H](Cc1c[nH]c2ccccc12)C(=O)NCC(=O)N[C@@H](CC(N)=O)C(=O)N[C@@H](CC(=O)O)C(=O)N1CCC[C@H]1C(=O)N[C@@H](Cc1ccc(O)cc1)C(=O)NCC(=O)N[C@@H](CC(C)C)C(=O)N[C@@H](CCCCN)C(=O)N[C@@H](CCCCN)C(=O)O [VGN73, (d-Arg}KKRR{ORN}RRR{β-Ala}WKHAVIFWGNDPYGLKK]
K-Rta-mediated lytic gene expression / KSHV reactivation: increased K-Rta-mediated lytic gene expression; also recorded: induces KSHV reactivation in KSHV latently infected PEL cells
